# According to PubChem BioAssay AID504329 (Southern Research Specialized Biocontainment Screening …, 2011):
# Some of the results follow. Entries with a potency or affinity are not part of this list. Calls of active or inactive are those of the source. No stated cut-off is given here; in the data, inconclusive means inhibition above about 27% without an active follow-up result; inactive means below that.
# Experiment: H1N1 influenza NS1A inhibitors, functional cell based assay (AID 504329)
# Details: percent inhibition, at 12.5 µM, active compounds read high
row,SMILES,inhibition
1,CCOC(=O)N1CCC(Nc2cccc(C)c2)CC1,inactive: -5.46%
2,COc1cc(C(=O)NCC2(N(C)C)CCCCC2)ccc1OC(F)F,inactive: 7.1%
3,CCOc1ccc(C)cc1CN(CCCl)CCCl,inactive: 8.07%
4,O=C1CCN(Cc2ccccc2)CC1,inactive: 3.92%
5,O=P1(N(CCCl)CCCl)SCCCS1,inactive: -0.44%
6,CCCCOc1ccc(C(=O)NCC2(N3CCOCC3)CCCCC2)cc1,inactive: 1.57%
7,O=C(NCC1(N2CCCCC2)CCCCC1)c1ccc(F)cc1,inactive: 0.95%
8,COc1ccc(NC2CCN(CCc3ccccc3)CC2)c(OC)c1,inactive: 27.4%
9,CCOC(=O)N1CCC(Nc2ccc(F)cc2)CC1,inactive: -4.96%
10,O=C(NCC1(N2CCOCC2)CCCCC1)c1cc2ccccc2o1,inactive: -15.6%
11,O=C(NCC1(N2CCCCC2)CCCCC1)c1ccc(Cl)nc1,inactive: -1.85%
12,Cc1cc(C)cc(N(C(=O)c2ccccc2)C2CCN(C(=O)OC(C)(C)C)CC2)c1,inactive: -2.36%
13,CCOC(=O)N1CCC(Nc2ccc(OC)cc2)CC1,inactive: -6.15%
14,N#CC1(Nc2ccccc2)CCN(Cc2ccccc2)CC1,inactive: -18.8%
15,O=C(NCC1(N2CCCCC2)CCCCC1)c1ccc(Cl)s1,inactive: -1.25%
16,O=C(OC1CN2CCC1CC2)C1c2ccccc2Oc2ccccc21 (centres undefined),inactive: -12.7%
17,COc1ccc(Cl)cc1C(=O)NCC1(N2CCOCC2)CCCCC1,inactive: -0.91%
18,O=C(NCC1(N2CCCCC2)CCCCC1)c1ccc(=O)[nH]c1,inactive: -1.6%
19,O=C(NCC1(N2CCCCC2)CCCCC1)c1cccs1,inactive: -1.1%
20,COc1ccc(C(=O)NCC2(N3CCCCC3)CCCCC2)cc1,inactive: 3.04%
21,CC(C)(C)OC(=O)N1CCC(N(C(=O)c2ccccc2)c2ccc(F)cc2)CC1,inactive: -1.73%
22,COc1ccc(C(=O)NCC2(N3CCCCC3)CCCCC2)c(OC)c1OC,inactive: -0.317%
23,CSc1ccccc1C(=O)NCC1(N2CCCCC2)CCCCC1,inactive: -2.28%
24,Cc1cccc(NC2(C#N)CCN(Cc3ccccc3)CC2)c1,inactive: -15.7%
25,CN1CCC(Nc2cccc(F)c2)CC1,inactive: 2.04%

row,SMILES,inhibition
1,O=C(NCC1(N2CCCCC2)CCCCC1)c1cncc(Br)c1,inactive: 2.79%
2,CCCOc1ccc(C(=O)NCC2(N(C)C)CCCCC2)cc1OC,inactive: -13%
3,COc1ccc(CN(CCCl)CCCl)cc1Cl,inactive: 1.53%
4,CN(C)c1cccc(C(=O)NCC2(N3CCCCC3)CCCCC2)c1,inactive: 2.25%
5,CC(C)c1ccc(NC2CCN(C(=O)OC(C)(C)C)CC2)cc1,inactive: 8.62%
6,COc1cc(OC)c(C(=O)NCC2(N(C)C)CCCCC2)cc1OC,inactive: -6.07%
7,O=C(NCC1(N2CCOCC2)CCCCC1)c1cc(F)c(F)cc1Cl,inactive: -17%
8,O=C(NCC1(N2CCCCC2)CCCCC1)c1cccc(C(F)(F)F)c1,inactive: -3.48%
9,CN1CCN(CCOC(=O)C(O)(c2ccccc2)c2ccccc2)CC1,inactive: -0.58%
10,CC(C)c1ccc(C(=O)NCC2(N3CCOCC3)CCCCC2)cc1,inactive: -6.58%
11,COc1ccc(NC2CCN(C(=O)OC(C)(C)C)CC2)cc1,inactive: -6.32%
12,COc1cc(C(=O)NCC2(N3CCCCC3)CCCCC2)ccc1OC(F)F,inactive: 8.98%
13,O=C(NCC1(N2CCOCC2)CCCCC1)c1cc(=O)[nH]c2ccccc12,inactive: -5.54%
14,O=C(NCC1(N2CCCCC2)CCCCC1)c1ccc(OC(F)F)cc1,inactive: 10.1%
15,CSc1ccc(C(=O)NCC2(N3CCOCC3)CCCCC2)cc1,inactive: -0.9%
16,O=C(NCC1(N2CCCCC2)CCCCC1)c1cccc([N+](=O)[O-])c1,inactive: 1.03%
17,CCN1CCC(Nc2ccc(Cl)cc2)CC1,inactive: -4.08%
18,N#CC1(Nc2ccccc2)CCN(CCc2ccccc2)CC1,inactive: -2.09%
19,c1ccc(CN2CCC(Nc3ccccc3)CC2)cc1,inactive: -2.82%
20,Cc1cc(N(CCCl)CCCl)ccc1C=O,inactive: -21.8%
21,CCCN1CCC(Nc2cc(OC)cc(OC)c2)CC1,inactive: 1.23%
22,CN(C)C1(CNC(=O)c2cccc(C#N)c2)CCCCC1,inactive: -3.88%
23,CC(C)(C)OC(=O)N1CCC(N(C(=O)c2ccccc2)c2ccc(Cl)cc2)CC1,inactive: 13.9%
24,N#Cc1ccc(C(=O)NCC2(N3CCCCC3)CCCCC2)cc1,inactive: 1.61%
25,N/C(=N\O)c1c(N)no[n+]1[O-],inactive: -8.93%

row,SMILES,inhibition
1,CCOC(=O)N1CCC(Nc2ccc(C)cc2)CC1,inactive: -3.37%
2,O=C(OC1CN2CCC1CC2)C1c2ccccc2C=Cc2ccccc21 (centres undefined),inactive: 1.86%
3,O=C(NCC1(N2CCOCC2)CCCCC1)c1cc(Br)ccc1Cl,inactive: -1.7%
4,COc1cc(C(=O)NCC2(N3CCOCC3)CCCCC2)cc(OC)c1C,inactive: -10.7%
5,COc1ccc(C(=O)NCC2(N3CCOCC3)CCCCC2)cc1OC,inactive: 2.13%
6,CCC(CO)(C(=O)OC1CN2CCC1CC2)c1ccccc1 (centres undefined),inactive: -23.1%
7,COc1cc(OC)cc(C(=O)NCC2(N3CCOCC3)CCCCC2)c1,inactive: -8.78%
8,COc1cccc(C(=O)N(c2cc(C)cc(C)c2)C2CCN(C(=O)OC(C)(C)C)CC2)c1,inactive: -1.43%
9,CN1CCC(Nc2ccc(Cl)cc2)CC1,inactive: -4.14%
10,CCOc1ncccc1C(=O)NCC1(N2CCOCC2)CCCCC1,inactive: -2.66%
11,CN1CCC(Nc2ccc(F)c(Cl)c2)CC1,inactive: 5.2%
12,CCCOc1ccc(C(=O)NCC2(N(C)C)CCCCC2)cc1,inactive: -20.6%
13,CC(C)(C)OC(=O)N1CCC(Nc2ccccc2)CC1,inactive: 4.23%
14,O=C(O)C1(Nc2ccccc2)CCN(Cc2ccccc2)CC1,inactive: -0.04%
15,Cc1ccccc1NC1(C#N)CCN(Cc2ccccc2)CC1,inactive: -19.2%
16,CCN1CCC(Nc2cccc(F)c2)CC1,inactive: -4.04%
17,O=C(NCC1(N2CCCCC2)CCCCC1)c1ccco1,inactive: -3.73%
18,CN(C)c1ccc(C(=O)NCC2(N3CCCCC3)CCCCC2)cc1,inactive: -0.11%
19,Cn1c(=O)[nH]cc(N(CCCl)CCCl)c1=O,inactive: -16.3%
20,COc1cc(OC)cc(C(=O)NCC2(N3CCCCC3)CCCCC2)c1,inactive: 8.61%
21,CC(=O)N(c1ccccc1)C1CCNCC1,inactive: 0.82%
22,Cc1ccc(NC2(C#N)CCN(Cc3ccccc3)CC2)cc1,inactive: 1.13%
23,Cc1ccc(C(=O)NCC2(N3CCCCC3)CCCCC2)o1,inactive: -7.48%
24,Fc1ccccc1NC1CCN(Cc2ccccc2)CC1,inactive: 1.02%
